Anti-infective test results gathered from many reports (values: NIAID ChemDB through PubChem).

All rows: tests in culture; agent: Mycobacterium tuberculosis

ECn: concentration that inhibits the pathogen or its effect by n%. Inhibition is in % at the dose shown (toxicity tests: loss of growth or viability). Lines come from different laboratories, so protocols vary. An empty or dashed field is not shown. A number after MIC or MFC names an inhibition level or a share of isolates. MIC bound: limit read from a one-dose screen.

compound,mutations,tested at,strain or isolate,method,read-out,cell line,result
Cc1c(C(F)(F)F)cc2nc(C3=N[C@H](C(=O)N4CCCC4)CO3)sc2c1[N+](=O)[O-],,,H37Rv,resazurin / absorbance,MIC80,,2 µg/mL
[Cl][Sn]([Cl])([c]1cccs1)[c]1cccs1.c1cnc2c(c1)ccc1cccnc12,,,H37Rv,BACTEC,MIC,,12.5 µg/mL
CC(C)(C)OC(=O)NC1C2CN(c3cc4c(cc3[N+](=O)[O-])c(=O)c(C(=O)O)c3n4CS3)CC21,,,H37Rv,agar,MIC,,0.4 µM
COc1cccc(NC2=CC(=O)C(=O)c3ccccc32)c1,,6.25 µg/mL,H37Rv,resazurin,inhibition,,36%
O=C(O)c1c2n(c3cc([N+](=O)[O-])c(N4CCC(O)(c5ccc(Cl)cc5)CC4)cc3c1=O)CS2,MDR-TB,,H37Rv,agar,MIC,,1.59 µM
CCCc1cc(=O)oc2c(C(=O)CC)c(OS(=O)(=O)c3ccc(C)cc3)c3c(c12)OC(C)(C)CC3,,,H37Ra,,MIC,,>128 µg/mL
CCCCSc1nc(C(N)=O)cnc1CC(C)C,,12.5 µg/mL,H37Rv,,inhibition,,<90%
Cc1nn(C(=O)c2ccc(Cl)cc2)c2c1C(c1ccc(Cl)cc1)SC(N)=N2,,,H37Rv,BACTEC,MIC bound,,>12.5 µg/mL
O=C(N[C@@H](CO)C(=O)N1CCCC1)c1nc2cc(C(F)(F)F)cc([N+](=O)[O-])c2s1,,,H37Rv,resazurin / absorbance,MBC,,1 µg/mL
Clc1ccc2c(N3CCCCC3)cc(N3CCOCC3)nc2n1,,6.25 µg/mL,H37Rv,BACTEC,inhibition,,8%
CC(=O)OC/C=C(\C)CCC[C@H](C)CCC[C@H](C)CCCC(C)C,,,H37Rv,,MIC,,16 µg/mL
C/C=C(/C)C(=O)OC1CC(C)(C)CC2C3=CCC4C5(C)CC[C@H](OC(C)=O)C(C)(C)C5CC[C@@]4(C)[C@]3(C)CC[C@@]12C(=O)O,,,H37Rv (rifampicin-resistant),,MIC,,50 µg/mL
CO[C@@H]1[C@H](O)[C@@H](C)O[C@@H](OC[C@H](C)[C@H]2OC(=O)[C@H](C)[C@@H](O[C@H]3C[C@@H](C)N(C)C[C@H](C)O3)[C@H](C)[C@@H](O[C@@H]3O[C@H](C)CC(=O)[C@H]3O)[C@@H](C)C[C@](C)(OC(=O)N3C[C@H](C)O[C@@H](C)C3)C(=O)[C@H](C)[C@H](OC(=O)CC(C)C)[C@H]2C)[C@@H]1OC,,,H37Rv,resazurin,MIC,,2.2 µM
O=C(O)c1cn2c(n1)CN(c1cc3c(=O)c(C(=O)O)c4n(c3cc1F)CS4)CC2,,,H37Rv,agar,MIC,,0.94 µM
CCSc1nc(C(N)=O)cnc1CC(C)C,,,H37Rv,,MIC,,>12.5 µg/mL
O=C(NCc1ccc(Cl)c(Cl)c1)c1ncccc1S,,,CNCTC MY 331/8,,MIC,,32 µM
CN(Cc1nc2nc(N)nc(N)c2[nH]1)c1ccc(C(=O)N[C@@H](CCC(=O)O)C(=O)O)cc1,,,H37Rv,BACTEC,MIC bound,,>12.5 µg/mL
C#CCOc1cc2c(c3oc(=O)cc(CCC)c13)[C@@H](O)[C@H](C)[C@@H](C)O2,,,H37Ra,,MIC,,>128 µg/mL
COc1cc2c(cc1OC)CN(c1cc3c(cc1[N+](=O)[O-])c(=O)c(C(=O)O)c1n3CS1)CC2,,,H37Rv,agar,MIC,,0.83 µM
COCCN1CCN(C(=O)c2nc3cc(C(F)(F)F)c(C)c([N+](=O)[O-])c3s2)CC1,BTZ-resistant (C387G),,H37Rv,resazurin / absorbance,MIC80,,>32 µg/mL
CC(C)(C)c1ccc(Cn2cnc([N+](=O)[O-])n2)cc1,,0.488 µM,H37Rv,turbidity,inhibition,,90%
COC(=O)C1=C(C(=O)OC)C2OC1C(COC(=O)NC1CCCCC1)=C2COC(=O)NC1CCCCC1,,,H37Rv,BACTEC,MIC bound,,>12.5 µg/mL
c1cc2c(N3CCOCC3)cc(N3CCOCC3)nc2nc1N1CCOCC1,,6.25 µg/mL,H37Rv,BACTEC,inhibition,,11%
CO[C@@H]1[C@H](O)[C@@H](C)O[C@@H](OC[C@H](C)[C@H]2OC(=O)[C@H](C)[C@@H](O[C@H]3C[C@@H](C)N(CCC(C)C)C[C@H](C)O3)[C@H](C)[C@@H](O[C@@H]3O[C@H](C)CC(=O)[C@H]3O)[C@@H](C)C[C@](C)(OC(=O)N3C[C@@H](C)O[C@@H](C)C3)C(=O)[C@H](C)[C@H](OC(=O)CC(C)C)[C@H]2C)[C@@H]1OC,,,H37Rv,resazurin,MIC,,1 µM
O=C(Nc1ccc(Br)cc1)c1ccccc1O,,,CNCTC MY 331/8,,MIC,,16 µM
CC1CN(c2cc3c(cc2F)c(=O)c(C(=O)O)c2n3CS2)CC(C)O1,,,H37Rv,agar,MIC,,4.28 µM
CN1C(=O)C23SSC1(C)C(=O)N2c1ccccc1C3(C)C,,,H37Rv,BACTEC,MIC,VERO,0.2 µg/mL
C/C(=C\CO)CCC[C@H](C)CCC[C@H](C)CCCC(C)C,,100 µg/mL,H37Rv,,inhibition,,92%
CCCc1cc(=O)oc2c(C(=O)CC)c(OCOC)c3c(c12)OC(C)(C)CC3,,,H37Ra,,MIC,,>128 µg/mL
NNC(=O)c1ccncc1,,,H37Rv,agar,MIC,,0.36 µM
Nc1nc(=O)[nH]s1,,,H37Rv,BACTEC,MIC bound,,≤12.5 µg/mL
O=C(O)c1c2n(c3cc(N4CCN(C(=O)c5ccco5)CC4)c(F)cc3c1=O)CS2,,,H37Rv,agar,MIC,,3.63 µM
N=NC(=O)c1ccccc1Nc1c(O)[nH]c2ccccc12,,,H37Rv,BACTEC,MIC,,≥12.5 µg/mL
Cc1ccc2c(N3CCOCC3)c(Cc3ccccc3)c(N3CCCCC3)nc2n1,,,H37Rv,BACTEC,EC50,,>6.25 µg/mL
CCCN1C[C@H](C)O[C@@H](O[C@H]2[C@H](C)[C@@H](O[C@@H]3O[C@H](C)CC(=O)[C@H]3O)[C@@H](C)C[C@](C)(OC(=O)N3C[C@@H](C)O[C@@H](C)C3)C(=O)[C@H](C)[C@H](OC(=O)CC(C)C)[C@@H](C)[C@@H]([C@@H](C)CO[C@@H]3O[C@H](C)[C@@H](O)[C@@H](OC)[C@H]3OC)OC(=O)[C@@H]2C)C[C@H]1C,,,H37Rv,resazurin,MIC,,1.14 µM
NCCCC(N)CC(=O)NCC1NC(=O)C(CO)NC(=O)C(NC(=O)CC(N)CCCN)CNC(=O)C(C2CCN=C(N)N2)NC(=O)/C(=C/NC(N)=O)NC1=O,,,Isolate VIM-R/6,,MIC,,5 µg/mL
CC(C)(C)OC(=O)NC1C2CN(c3cc4c(=O)c(C(=O)O)c5n(c4cc3F)CS5)CC21,MDR-TB,,H37Rv,agar,MIC,,0.42 µM
CCCCc1ncc(C(N)=S)nc1SCCC,,,H37Rv,,MIC,,>12.5 µg/mL
Cc1sccc1C(=S)Nc1ccc(Cl)c(/C=N/OC(C)(C)C)c1,,,H37Rv,BACTEC,MIC,,12.5 µg/mL
CO[C@H]1/C=C/O[C@@]2(C)Oc3c(C)c(O)c4c(O)c5nc(ncc5c(O)c4c3C2=O)/C(C)=C\C=C\[C@H](C)[C@H](O)[C@@H](C)[C@@H](O)[C@@H](C)[C@H](OC(C)=O)[C@@H]1C,,,234,,MIC,,0.5 µg/mL
COCCN1CCN(C(=O)c2nc3cc(C(F)(F)F)cc([N+](=O)[O-])c3s2)CC1,,,H37Rv,resazurin / absorbance,MBC,,0.5 µg/mL
CCCc1cc(=O)oc2c(C(=O)CC)c(OCC(=O)OCC)c3c(c12)OC(C)(C)CC3,,,H37Ra,,MIC,,>128 µg/mL
COc1cc(C/C=C/c2ccccc2)c(OC)cc1O,,,H37Rv,BACTEC,MIC,,≥12.5 µg/mL
O=[N+]([O-])c1cc(C(F)(F)F)cc2nc(C3=NCCO3)sc12,,,H37Rv,resazurin / absorbance,MIC80,,2 µg/mL
CC(=O)N=C1N(/C=C2\C(=O)Oc3ccccc3C2=O)C(=O)/C(=C/c2cccc(Cl)c2Cl)N1C,,,H37Rv,BACTEC,MIC bound,,>12.5 µg/mL
CC1CN(c2cc3c(=O)c(C(=O)O)c4n(c3cc2[N+](=O)[O-])CS4)CC(C)O1,,,H37Rv,agar,MIC,,3.99 µM
O=C(COc1ccc2c(=O)cc(-c3ccccc3)oc2c1)N1CCN(c2ccccc2)CC1,,,H37Rv,resazurin,MIC bound,,>6.25 µg/mL
CCCSc1nc(C(N)=S)cnc1CC(C)C,,,H37Rv,,MIC,,>6.25 µg/mL
C=C1C(=O)N[C@@H](C)C(=O)N[C@H](CC(C)C)C(=O)N[C@H](C(=O)O)[C@H](C)C(=O)N[C@H](CCCN=C(N)N)C(=O)N[C@@H](/C=C/C(C)=C/[C@H](C)[C@H](Cc2ccccc2)OC)[C@@H](C)C(=O)N[C@@H](C(=O)O)CCC(=O)N1C,,,H37Rv,resazurin,MIC,,>53 µM
Cc1onc(-c2c(F)cccc2F)c1C(=O)N1CCN(c2cc3c(cc2[N+](=O)[O-])c(=O)c(C(=O)O)c2n3CS2)CC1,,,H37Rv,agar,MIC,,5.36 µM
CSc1nc(C(N)=O)cnc1C(C)(C)C,,,H37Rv,,MIC,,>12.5 µg/mL
CC(C)CCC[C@@H](C)CCC[C@@H](C)CCCC(C)CCO,,,H37Rv,,MIC,,2 µg/mL
CCCc1cc(=O)oc2c(C(=O)CC)c(OCC)c3c(c12)OC(C)(C)C=C3,,,H37Ra,,MIC,,>128 µg/mL
O=C(NCc1ccc(Cl)cc1)c1ncccc1O,,,CNCTC MY 331/8,,MIC,,125 µM
CC(C)(C)c1ncc(C(N)=S)nc1Sc1ccccc1,,,H37Rv,,MIC,,>12.5 µg/mL
O=C(Nc1ccc(Cl)c(Cl)c1)c1ccccc1O,,,CNCTC MY 331/8,,MIC,,8 µM
COc1ccc(CC2C3=C(CCCC3)CCN2c2cc3c(=O)c(C(=O)O)c4n(c3cc2[N+](=O)[O-])CS4)cc1,,,H37Rv,agar,MIC,,5.87 µM
O=c1cc(-c2ccccc2)oc2cc(O)cc(O)c12,,,H37Rv,BACTEC,MIC bound,,>12.5 µg/mL
O=C(NCc1ccc(F)cc1)c1ncccc1O,,,CNCTC MY 331/8,,MIC,,250 µM
O=C1C=CC2OC(c3ccccc3)C(O)C2O1,,,H37Rv,BACTEC,MIC,,≥12.5 µg/mL
NCCC[C@H](N)CC(=O)N[C@H]1CNC(=O)[C@H]([C@H]2C[C@H](O)NC(N)=N2)NC(=O)/C(=C/NC(N)=O)NC(=O)[C@H](CO)NC(=O)[C@H](CO)NC1=O,,,Isolate VIM-R/5,,MIC,,>40 µg/mL
COc1ccc(CC2C3=C(CCCC3)CCN2c2cc3c(cc2F)c(=O)c(C(=O)O)c2n3CS2)cc1,,,H37Rv,agar,MIC,,12.33 µM
Cc1ccc2c(Cl)c(Cc3ccccc3)c(N3CCCCC3)nc2n1,,,H37Rv,BACTEC,EC50,,>6.25 µg/mL
CCCc1ncc(C(N)=S)nc1SCC,,,H37Rv,,MIC,,>12.5 µg/mL
NNC(=O)c1ccncc1,,,ATCC 27294,,MIC,,0.031 µg/mL
CC(C)CN(C[C@@H](O)[C@H](Cc1ccccc1)NC(=O)[C@H](CC(N)=O)NC(=O)c1ccc2ccccc2n1)C(=O)NC(C)(C)C,,12.5 µg/mL,H37Rv,BACTEC,inhibition,,0%
CO[C@H]1/C=C/O[C@@]2(C)Oc3c(C)c(O)c4c(O)c(c(/C=N/N=C/N5CCCCC5)c(O)c4c3C2=O)NC(=O)/C(C)=C\C=C\[C@H](C)[C@H](O)[C@@H](C)[C@@H](O)[C@@H](C)[C@H](OC(C)=O)[C@@H]1C,,,isolates 4,,MIC,,50 µg/mL
CO[C@H]1[C@@H](O)[C@@H](C)O[C@H](O[C@H]2[C@H](Oc3cccc4c(O)c5c(=O)oc6ccc(C)c7c(=O)oc(c34)c5c67)O[C@H](C)[C@H](O)[C@@H]2O)[C@@H]1O,,128 µg/mL,H37Rv,BACTEC,inhibition,,87%
CC(C)(C)NC(=O)C1c2ccccc2CCN1c1cc2c(=O)c(C(=O)O)c3n(c2cc1[N+](=O)[O-])CS3,MDR-TB,,H37Rv,agar,MIC,,1.53 µM
NC(=O)c1csc(CCNC(=O)c2ccccc2)n1,,12.5 µg/mL,H37Rv,BACTEC,inhibition,,33%
Cc1ccc2c(O)c(Cc3ccccc3)c(=O)[nH]c2n1,,6.25 µg/mL,H37Rv,BACTEC,inhibition,,0%
O=C1Sc2ccccc2C(=O)N2CCSC12,,12.5 µg/mL,H37Rv,BACTEC,inhibition,,18%
CCCSc1nc(C(N)=S)cnc1C(C)(C)C,,12.5 µg/mL,H37Rv,,inhibition,,<90%
COc1cc(C2c3c(oc4ccccc4c3=O)Oc3oc4ccccc4c(=O)c32)cc(OC)c1O,,12.5 µg/mL,H37Rv,BACTEC,inhibition,,-97%
CC(C)Cc1ncc(C(N)=O)nc1Sc1ccccc1,,12.5 µg/mL,H37Rv,,inhibition,,<90%
COC(=O)C1C(O)C(C)C(O)OC1C(C)C(O)C(C)C=CC=C(C)C(=O)Nc1c(C)c(OC(C)=O)c2c(c1O)C(=O)C(C)=C1OCOC(C(C)=CC(C)=O)=C12,,,H37Rv,BACTEC,MIC,,128 µg/mL
O=C(O)c1c2n(c3cc([N+](=O)[O-])c(N4CCN(Cc5ccc6c(c5)OCO6)CC4)cc3c1=O)CS2,MDR-TB,,H37Rv,agar,MIC,,1.57 µM